This is an account of results in patent US20060002960A1 (priority 2003, published 2006).

The subject of this assay is mice. To be noted: mouse, in vivo.

For the substance cholera toxin [CT], the “TT IgG, Assay values (Elisa Units) Individual Mice” value turned out to be 49754 Elisa Units.
